Data reported in PubChem BioAssay AID1159524 (National Center for Advancing Translational Sciences (NCATS), 2015).
This is a selection; strong and weak results do not stand in their true shares. Inconclusive results are not listed. Some salts or complexes appear as unconnected parts, following the source record. Calls of active or inactive are those of the source. Calls come from the whole dose curve; tested in HEK293T cells.
% is set by controls: 0 for no effect and ±100 for the full control effect.

Assay: High Throughput Screening for Foot and Mouth Disease Virus Antivirals; note: read-out not given here; nearly all actives have a fitted effect of over 45% in size
Conditions: FMDV antiviral cell-based qHTS; at 57.9 µM (top of the series)
For `Cn1c(=O)[nH]cc(N(CCCl)CCCl)c1=O`, the activity change, negative = inhibition was inactive: -1.06%.
In the case of `Cc1ccc(Nc2c([N+](=O)[O-])cc([N+](=O)[O-])cc2[N+](=O)[O-])cc1`, the activity change, negative = inhibition is reported as inactive: -10.1%.
With `O=C(O)c1cccc(Nc2c([N+](=O)[O-])cc([N+](=O)[O-])cc2[N+](=O)[O-])c1` the activity change, negative = inhibition was inactive: -13.9%.
For `N/C(=N\O)c1c(N)no[n+]1[O-]`, the activity change, negative = inhibition was inactive: 0.253%.
In the case of `Cc1cc(N(CCCl)CCCl)ccc1C=O`, the activity change, negative = inhibition is reported as inactive: -15.9%.
With `CCOC(=O)C(CC)C1=NC(C)(C)Cc2ccccc21.O=[N+]([O-])c1cc([N+](=O)[O-])c(O)c([N+](=O)[O-])c1` (stereo unspecified) the activity change, negative = inhibition was inactive: -25.6%.
In the case of `COc1ccc2c(c1O)-c1c(O)c(OC)cc3c1[C@H](C2)[N+](C)(C)CC3.O=[N+]([O-])c1cc([N+](=O)[O-])c([O-])c([N+](=O)[O-])c1[O-]`, the activity change, negative = inhibition is reported as inactive: -2.25%.
For `O=C(OC1CN2CCC1CC2)c1ccc([N+](=O)[O-])cc1` (stereo unspecified), the activity change, negative = inhibition was inactive: -3.1%.
With `O=[N+]([O-])c1cc([N+](=O)[O-])c(OC2CCCCC2O)c([N+](=O)[O-])c1` (stereo unspecified) the activity change, negative = inhibition was inactive: -12.8%.
For `O=C1C(O)=C([N+](=O)[O-])C(=O)C(O)=C1[N+](=O)[O-]`, the activity change, negative = inhibition was inactive: 14.3%.
With `O=P1(N(CCCl)CCCl)SCCCS1` the activity change, negative = inhibition was inactive: 0.687%.
